Compound potency records, mixed from different reports. Data source: NIAID ChemDB in PubChem.

All rows: whole-cell or culture tests; species: HIV-1; cells: MT-2; measure: inhibition

Conditions beyond the fields shown may differ between rows. An empty or dashed field is not shown. Percent inhibition refers to the dose given; in toxicity tests it is the harm to the cells.

| SMILES | strain or isolate | method | dose | result |
|---|---|---|---|---|
| CC1(C)CC[C@]2(C(=O)NCC(=O)O)CC[C@]3(C)C(=CC[C@@H]4[C@@]5(C)C[C@@H](O)[C@H](O)C(C)(C)[C@@H]5CC[C@]43C)[C@@H]2C1 | pNL4-3 | p24 / ELISA | 10 µM | -62.1% |
| COc1cccc(C(C)(C)NCC(=O)N[C@H](C(=O)N[C@@H](Cc2ccccc2)[C@H](O)CN(CC(C)C)S(=O)(=O)c2ccc(N)cc2)C(C)(C)C)c1 | RF |  | 90 µM | <1% |
| COc1ccc(CCNC(=O)c2ccc(C(=O)NCCc3ccc(OC)c(OC)c3)nc2)cc1OC | IIIB | p24 | 10 µM | 33.7% |
| Cc1ccc(C(=O)N2CCN(C(=O)C(=O)c3c[nH]c4ccccc34)CC2)cc1 | BRU | RT activity | 10 µM | 61.8% |
| Cc1cccc(C)c1OCC(=O)N[C@@H](Cc1ccccc1)[C@H](O)[C@@H](O)[C@@H]1CCCN1C(=O)COc1c(C)cccc1C | IIIB | MTT | 0.0001 µM | 22% |
| COC(=O)[C@H](C)NC(=O)[C@]12CCC(C)(C)C[C@H]1C1=CC[C@@H]3[C@@]4(C)C[C@@H](O)[C@H](O)C(C)(C)[C@@H]4CC[C@@]3(C)[C@]1(C)CC2 | pNL4-3 | p24 / ELISA | 10 µM | 36.4% |
| CC(C)[C@H](NC(=O)[C@H](Cc1ccccc1)C[C@H](O)[C@H](Cc1ccccc1)NC(=O)OC(C)(C)C)C(=O)N[C@@H](Cc1ccccc1)C(=O)N1CCOCC1 | LAV | RT activity | 0.1 µM | 90% |
| Cc1nnc(N)nc1C/C=C/C(Sc1ccc(Cl)cc1)c1cccs1 | RF |  | 2 µM | 79.9% |
| CCc1cccc2c(C(=O)C(=O)N3CCN(C(=O)c4ccccc4)CC3)c[nH]c12 |  | RT activity | 10 µM | >98% |
| O=C(O)C(O)c1ccccc1 | IIIS | syncytia | 50 µg/mL | 100% |
| Cc1c2ccnc(Cl)c2cc2c3cn(C)ccc-3nc12 |  | syncytia | 1 µM | 100% |
| CC(C)CN(C[C@@H](O)[C@H](Cc1ccccc1)NC(=O)[C@@H](NC(=O)CNC(C)(C)c1cc(F)cc(F)c1)C(C)(C)C)S(=O)(=O)c1ccc(N)cc1 | RF |  | 90 µM | <1% |
| CC1(C)CC[C@]2(C(=O)NCCCCCCCCCCC(=O)NCC(=O)O)CC[C@]3(C)C(=CC[C@@H]4[C@@]5(C)C[C@@H](O)[C@H](O)C(C)(C)[C@@H]5CC[C@]43C)[C@@H]2C1 | pNL4-3 | p24 / ELISA | 10 µM | 14.4% |
| C[C@H]1/C=C/[C@@]2(C)CC[C@@H](C(C)(C)O)[C@@H]2[C@@H](O)C[C@](C)(O)/C=C/C1 |  | cytopathic effect / MTT | 6.25 µM | 52% |
| O=C(NCc1cccnc1)C(=O)N/N=C\c1ccc(-c2cccc(Cl)c2)o1 | IIIB | p24 | 10 µM | 77.5% |
| O=C(C(=O)N1CCN(C(=O)c2ccc(F)cc2)CC1)c1c[nH]c2ccccc12 | BRU | RT activity | 10 µM | 73.6% |
| CCOc1ccccc1N(CC(=O)Nc1ccc(S(=O)(=O)Nc2cccc(C(F)(F)F)c2)cc1)S(C)(=O)=O | IIIB | p24 | 10 µM | 57.2% |
| COC(=O)[C@@H](NC(=O)[C@]12CCC(C)(C)C[C@H]1C1=CC[C@@H]3[C@@]4(C)C[C@@H](O)[C@H](O)C(C)(C)[C@@H]4CC[C@@]3(C)[C@]1(C)CC2)C(C)C | pNL4-3 | p24 / ELISA | 25 µM | 88.9% |
| CSC(C)(C)[C@H](NC(=O)CNC(C)(C)c1cccc(F)c1)C(=O)N[C@@H](Cc1ccccc1)[C@H](O)CN(CC(C)C)S(=O)(=O)c1ccc2ncccc2c1 | RF |  | 90 µM | <1% |
| Nc1ccn([C@@H]2CC[C@H](CO)O2)c(=O)n1 | IIIB | cytopathic effect / MTT | 0.4 µM | 9% |
| CC1=NNC(N)=N/C1=C/C(Sc1ccc(Cl)cc1)c1ccc(Cl)cc1Cl | RF |  | 0.35 µM | 7.8% |
| CC(C)CN(C[C@@H](O)[C@H](Cc1ccccc1)NC(=O)[C@@H](NC(=O)CNC(C)(C)c1cccc(F)c1)C(C)C)S(=O)(=O)c1ccc(N)cc1 | RF |  | 90 µM | <1% |
| O=C(C(=O)N1CCN(C(=O)c2cccc(Cl)c2F)CC1)c1c[nH]c2ccccc12 | BRU | RT activity | 10 µM | 91.2% |
| Nc1ccn([C@H]2C=C[C@@H](CO)O2)c(=O)n1 | LAV | RT activity | 1 µM | 92% |
| CC(C)CN(C[C@@H](O)[C@H](Cc1ccccc1)NC(=O)[C@@H](NC(=O)CNC(C)(C)c1ccccc1)C(C)(C)C)S(=O)(=O)c1ccc2ncccc2c1 | RF |  | 90 µM | <1% |
| O=C(C(=O)N1CCN(C(=O)c2ccccc2)CC1)c1c[nH]c2ccc(F)cc12 | BRU | RT activity | 10 µM | 94.6% |
| Nc1cccc(CO[C@@H]2[C@H](O)[C@@H](O)[C@@H](OCc3cccc(N)c3)[C@@H](Cc3ccccc3)S(=O)(=O)[C@@H]2Cc2ccccc2)c1 | HXB2D | cytopathic effect / XTT | 0.02 µM | 90% |
| C/C(CC(=O)Nc1ccc(C(N)=O)cc1)=N\NC(=O)COc1ccc2ccccc2c1 | IIIB | p24 | 10 µM | 23% |
| COCCNC(=O)[C@@H](NC(=O)[C@H](Cc1ccc(OC)c(OC)c1OC)C[C@H](O)[C@H](Cc1ccccc1)NC(=O)OC(C)(C)C)C(C)C | MN | RT activity | 0.03 µM | 90% |
| Cc1ccnc2c1NC(=O)c1cccnc1N2C1CC1 |  | cytopathic effect / MTT | 5 µM | 99% |
| COc1ccc2c(C(=O)C(=O)N3CCN(C(=O)c4ccccc4)CC3)c[nH]c2c1 | BRU | RT activity | 10 µM | 96.4% |
| NCC(=O)N1CCC[C@H]1C(=O)NCC(N)=O | LAV | p24 | 200 µM | 68% |
| O=C(C(=O)N1CCN(C(=O)c2cccc(Br)c2)CC1)c1c[nH]c2ccccc12 | BRU | RT activity | 10 µM | 88.4% |
| C=CSC(NC(=O)[C@H](Cc1ccccc1)NS(=O)(=O)N1CCOCC1)C(=O)N[C@@H](CC1CCCCC1)[C@@H](O)C[C@H](C(=O)NCCCC)C(C)C | IIIB | cytopathic effect / XTT | 13 µM | 0% |
| Nc1nc(=O)n([C@H]2CC[C@@H](CO)O2)cc1F | IIIB | cytopathic effect / MTT | 0.4 µM | 23% |
| O=C(C(=O)N1CCN(C(=O)c2ccccc2)CC1)c1c[nH]c2cccc(F)c12 | BRU | RT activity | 10 µM | >98% |

For reference, 2 entries again:

SMILES	strain or isolate	method	dose	result
COc1ccc(CCNC(=O)c2ccc(C(=O)NCCc3ccc(OC)c(OC)c3)nc2)cc1OC	IIIB	p24	10 µM	33.7%
Cc1c2ccnc(Cl)c2cc2c3cn(C)ccc-3nc12		syncytia	1 µM	100%